Pooled drug test results. Numbers come from NIAID ChemDB, via PubChem.

All rows: growth or infection tests; species: Rhinovirus

Conditions beyond the fields shown may differ between rows. ECn is the concentration giving n% inhibition of infection, replication or growth.

compound,strain,measure,cells,method,value
CS(=O)(=O)c1ccc(NCc2ccc(Cl)c(Cl)c2)nc1,TYPE 21,EC50,HeLa,cytopathic effect,5 µg/mL
CCn1c2c(c(=O)c3cc(C(C)C)ccc31)Cc1ccccc1-2,33/1200,EC50,HELA-OHIO,cytopathic effect,0.2 µg/mL
Cc1cc(CCCOc2c(C)cc(-c3noc(C(F)(F)F)n3)cc2C)on1,Isolate 44,EC50,OHIO HELA-I,cytopathic effect / visual reading,0.05 µg/mL
CSc1nsc(-c2ccc(OCCCCOc3ccc(C#N)cc3)cc2)c1C#N,Serotype 29 (group B),EC50,HELA-OHIO,cytopathic effect,>2 µM
Fc1cccc(Cn2cnc3c(Nc4cccc(F)c4)nc(C(F)(F)F)nc32)c1,Serotype 14,EC50,M-HELA,plaque count,7 µM
CSc1ccc(Cn2cnc3c(N(C)C)nc(C(F)(F)F)nc32)cc1,Serotype 21,EC50,M-HELA,plaque count,>8 µM
CSc1nsc(-c2ccc(OC(C)(C)C)cc2)c1C#N,Serotype 59 (group B),EC50,HELA-OHIO,cytopathic effect,>40 µM
CSc1nsc(-c2ccc(OCCOc3ccc(C#N)cc3)cc2)c1C#N,Serotype 29 (group B),EC50,HELA-OHIO,cytopathic effect,>2 µM
CS(=O)(=O)c1ccc(Cc2ccc(Cl)c(Cl)c2)nc1,TYPE 5,EC50,HeLa,cytopathic effect,>10 µg/mL
CCOC(=O)c1ccc(OCCC2CCN(c3ccc(C)nn3)CC2)cc1,Serotype 14 (group A),EC50,HELA-OHIO,cytopathic effect,0.04 µM
Cc1ccc(CCCOc2c(C)cc(-c3noc(C(F)F)n3)cc2C)nn1,serotypes 3 4 5 9 16 18 38 66 75 67,EC80,HeLa,cytopathic effect,0.116 µg/mL
Cc1c(-c2ccccc2)n(-c2cccc(F)c2)c2ccc(C(C)C)cc2c1=O,21/47,EC50,HELA-OHIO,cytopathic effect,0.048 µg/mL
CC(=O)Nc1ccc(Cc2ccc(S(C)(=O)=O)cn2)cc1,TYPE 2,EC50,HeLa,cytopathic effect,>10 µg/mL
Cc1cc(-c2noc(C(F)F)n2)cc(C)c1OCCCc1cccnn1,serotypes 3 4 5 9 16 18 38 66 75 67,EC50,HeLa,cytopathic effect,0.1315 µg/mL
CC(C)Oc1ccc(Cn2cnc3c(N(C)C)nc(C(F)(F)F)nc32)cc1,Serotype 14,EC50,M-HELA,plaque count,>8 µM
CCOC(=O)c1ccc(OCCC2CCN(c3ccc(C)nn3)CC2)cc1,2268-CV37 (ICAM-1 receptor group 60),EC50,KB,neutral red,0.038 µM
CS(=O)(=O)c1ccc(NCc2ccc(Br)cc2)nc1,TYPE 2,EC50,HeLa,cytopathic effect,6.3 µg/mL
Cc1nc(-c2cc(C)c(OCCCc3cc(C4CC4)no3)c(C)c2)no1,Serotype 6,EC50,HeLa,cytopathic effect,0.84 µg/mL
CSc1nsc(-c2ccc(OCCCCOc3ccc([N+](=O)[O-])cc3)cc2)c1C#N,Serotype 72 (group A),EC50,HELA-OHIO,cytopathic effect,>0.5 µM
Cc1cc(CCCCCOc2c(Cl)cc(C3=NCCO3)cc2Cl)on1,TYPE 7,EC50,HeLa,plaque count,0.017 µg/mL
CN(C)c1nc(C(F)(F)F)nc2c1ncn2Cc1ccccc1Cl,TYPE 1B,EC50,M-HELA,plaque count,0.2 µM
CSc1nsc(-c2ccc(OCCCc3ccccc3)cc2)c1C#N,Serotype 72 (group A),EC50,HELA-OHIO,cytopathic effect,>20 µM
Cc1nc(-c2cc(C)c(OCCCc3cc(C(F)(F)F)no3)c(C)c2)no1,Serotype 67,EC50,HeLa,cytopathic effect,0.161 µg/mL
CN(C)c1ccc(Cc2ccc(S(C)(=O)=O)cn2)cc1,TYPE 2,EC50,HeLa,cytopathic effect,>10 µg/mL
CCOC(=O)c1ccc(OCCC2CCN(c3ccc(C)nn3)CC2)cc1,Serotype 39,EC50,WI-38,cytopathic effect,<0.1 µg/mL
CC(=O)c1ccc(CCCOc2ccc(-c3noc(C(F)F)n3)c(C)c2)nn1,serotypes 3 4 5 9 16 18 38 66 75 67,EC50,HeLa,cytopathic effect,0.04 µg/mL
Cc1ccc(Cn2cnc3c(Nc4cccc(F)c4)nc(C(F)(F)F)nc32)cc1,Serotype 2,EC50,M-HELA,plaque count,2.6 µM
CN(C)c1ccc(Cn2cnc3c(N(C)C)nc(C(F)(F)F)nc32)cc1,Serotype 5,EC50,M-HELA,plaque count,>8 µM
CSc1nsc(-c2ccc(OCc3ccccc3)cc2)c1C#N,Serotype 70 (group A),EC50,HELA-OHIO,cytopathic effect,25 µM
Cc1c(-c2ccccc2)n(-c2ccc(F)cc2)c2ccc(C(C)C)cc2c1=O,41/56110,EC50,HELA-OHIO,cytopathic effect,0.058 µg/mL
Cc1cc(Cl)ccc1Cn1cnc2c(N(C)C)nc(C(F)(F)F)nc21,Serotype 13,EC50,M-HELA,plaque count,>8 µM
CSc1nsc(-c2ccc(OCCCOc3ccc(C#N)cc3)cc2)c1C#N,Serotype 59 (group B),EC50,HELA-OHIO,cytopathic effect,>2 µM
CSc1nsc(-c2ccc(OS(=O)(=O)c3ccc(C)cc3)cc2)c1C#N,Serotype 45 (group A),EC50,HELA-OHIO,cytopathic effect,>25 µM
COC(=O)c1cc(CCCOc2c(C)cc(-c3noc(C)n3)cc2C)on1,Serotype 22,EC50,HeLa,cytopathic effect,0.008 µg/mL
CCS(=O)(=O)c1ccc(NCc2ccc(Cl)c(Cl)c2)nc1,TYPE 64,EC50,HeLa,cytopathic effect,6.3 µg/mL
CN(C)c1nc(C(F)(F)F)nc2c1ncn2Cc1ccc(Cl)cc1Cl,Serotype 21,EC50,M-HELA,plaque count,>8 µM
Cc1cc(OCCCc2ccc(C=O)nn2)cc(C)c1-c1noc(C(F)F)n1,serotypes 3 4 5 9 16 18 38 66 75 67,EC80,HeLa,cytopathic effect,0.33 µg/mL